A mixed list of measured activities; the numbers were collected in NIAID ChemDB.

Common to all: target-level tests

Blank or dashed fields: not listed here.

compound,read by,measure,target,strain or isolate,organism,dose,result
CSc1ccc(-c2cnc3c(C(=O)O)cnn3c2C2CCCCC2)cc1,,IC50,RNA-dependent RNA polymerase,,Hepatitis C virus,,1–10 µM
NC(=O)c1c(N)sc2c1CCCCC2,RNase H / substrate cleavage,inhibition,RNase H,gtH,Hepatitis B virus,10 µM,>43%
O=c1oc2c(O)c(O)cc3c(=O)oc4c(O)c(O)cc1c4c23,fluorescence,IC90,Nonstructural protein 3/4A,,Hepatitis C virus,,<10 µM
C[C@H](Cc1ccc(O)c(O)c1)[C@@H](C)Cc1ccc(O)c(O)c1,RNase H / substrate cleavage,inhibition,RNase H,gtH,Hepatitis B virus,10 µM,>43%
CNC(=O)c1c(-c2ccc(F)cc2)oc2cc(N(CC(O)c3ccc(F)cc3)S(C)(=O)=O)c(OC(C)C)cc12,,IC50,Nonstructural protein 5B,,Hepatitis C virus,,≤0.5 µM
CCSc1nc(N2CCN(C(=O)c3ccccc3)CC2)cc(N(C)c2ccc(N(C)Cc3ccccc3)cc2)n1,,inhibition,NS5B polymerase,,Hepatitis C virus,0.1 µg/mL,30–55%
O=C(O)c1cc2nc(-c3cccs3)c(C3CCCCC3)c(=O)n2[nH]1,,IC50,RNA-dependent RNA polymerase,,Hepatitis C virus,,1–10 µM
CCOc1cc2c(C(=O)NC)c(-c3ccc(F)cc3)oc2cc1-c1c(C)noc1C,,IC50,Nonstructural protein 5B,,Hepatitis C virus,,≤0.5 µM
Cc1cccc(-c2cc3c(C(F)(F)F)cc(C(F)(F)F)nc3n3c(-c4ccc(Cl)cc4)cnc23)c1,luciferase / reporter gene,IC50,Envelope glycoprotein 2,JFH-1,Hepatitis C virus,,>20 µM
O=C(/C=C/c1ccc(O)c(O)c1)O[C@H]1[C@H](O)C[C@](O)(C(=O)O)C[C@H]1OC(=O)/C=C/c1ccc(O)c(O)c1,ELISA,inhibition,HBsAg,HepG 2.2.15,Hepatitis B virus,10 µg/mL,5.48%
CNC(=O)c1c(-c2ccc(F)cc2)oc2cc(NS(C)(=O)=O)c(C3CC3)cc12,,IC50,Nonstructural protein 5B,,Hepatitis C virus,,≤0.5 µM
CCOC(=O)c1sc(NC(=O)CSc2nnc(Cc3ccccc3)o2)c(C#N)c1C,RNase H / substrate cleavage,inhibition,RNase H,gtH,Hepatitis B virus,10 µM,>43%
COC(=O)c1cc2nc(-c3ccc(OC)cc3)c(-c3ccc(OC)cc3)c(=O)n2[nH]1,,IC50,RNA-dependent RNA polymerase,,Hepatitis C virus,,>10 µM
CCSc1nc(N2CCN(C(=O)c3ccccc3)CC2)cc(N(C)c2ccc(N(CC)CC)cc2)n1,,inhibition,NS5B polymerase,,Hepatitis C virus,0.1 µg/mL,30–55%
COc1cccc(Oc2ccc(-c3nc4cc(C(=O)O)[nH]n4c(=O)c3C3CCCCC3)cc2)c1,,IC50,RNA-dependent RNA polymerase,,Hepatitis C virus,,<1 µM
CNC(=O)c1c(-c2ccc(F)cc2)oc2cc(N(CCO)S(C)(=O)=O)c(C3CC3)cc12,,IC50,Nonstructural protein 5B,,Hepatitis C virus,,≤0.5 µM
CCOC(=O)c1ccc(CC)nc1Nc1ccc(N2CCOCC2)cc1,,inhibition,NS5B polymerase,,Hepatitis C virus,0.1 µg/mL,30–55%
O=[N+]([O-])c1ccc(-c2cc3c(C(F)(F)F)cc(C(F)(F)F)nc3n3c(-c4ccc([N+](=O)[O-])cc4)cnc23)cc1,luciferase / reporter gene,IC50,Envelope glycoprotein 2,JFH-1,Hepatitis C virus,,>20 µM
Nc1nc(=O)c2ncn(CCOCP(=O)(O)O)c2c(=O)[nH]1,helicase activity,IC50,Nonstructural protein 3 NTPase/helicase,,Hepatitis C virus,,200 µM
COc1nc(Nc2ccc3cn[nH]c3c2)nc(N2CCCC2)n1,,inhibition,DNA polymerase,,Hepatitis B virus,1 µg/mL,63%
COc1ccc2ccccc2c1/C=N/NC(=O)c1cc(O)c(O)c(O)c1,RNase H / substrate cleavage,inhibition,RNase H,gtD,Hepatitis B virus,10 µM,>43%
Cc1nc2cc(NC(=O)c3ccc(S(=O)(=O)N(C)Cc4ccccc4)cc3)ccc2s1,ELISA,IC50,HBeAg production,,Hepatitis B virus,,0.35 µM
COc1nc(NCCc2c[nH]c3ccccc23)nc(Nc2ccc3cn[nH]c3c2)n1,,IC50,DNA polymerase,,Hepatitis B virus,,>1 µg/mL
FC(F)(F)c1cc(C(F)(F)F)c2ccc3nc(-c4nnco4)cn3c2n1,luciferase / reporter gene,IC50,Envelope glycoprotein 2,JFH-1,Hepatitis C virus,,0.18 µM
Cc1sc2nc(-c3ccc([N+](=O)[O-])cc3)[nH]c(=O)c2c1C,RNase H / substrate cleavage,inhibition,RNase H,gtD,Hepatitis B virus,10 µM,<24%
COc1nc(NCCN(C)C)nc(Nc2ccc3[nH]ncc3c2)n1,,inhibition,DNA polymerase,,Hepatitis B virus,1 µg/mL,40%
CCSc1nc(Nc2ccc(N(CC)CC)cc2)cc(N2CCN(C(=O)c3ccncc3)CC2)n1,,inhibition,NS5B polymerase,,Hepatitis C virus,0.1 µg/mL,30–55%
COc1ccc(-c2cnc3ccc4c(C(F)(F)F)cc(C(F)(F)F)nc4n23)cc1,luciferase / reporter gene,IC50,Envelope glycoprotein 2,JFH-1,Hepatitis C virus,,10.3 µM
COC(=O)c1cc2nc(C)cc(C(F)(F)F)n2n1,,IC50,RNA-dependent RNA polymerase,,Hepatitis C virus,,>10 µM
COCCNc1nc(Nc2ccc3[nH]ncc3c2)nc(OC)n1,,inhibition,DNA polymerase,,Hepatitis B virus,1 µg/mL,73%
O=C(O)c1cc2nc(-c3ccc(Oc4ccccc4)cc3)c(C3CCCCC3)c(=O)n2[nH]1,,IC50,RNA-dependent RNA polymerase,,Hepatitis C virus,,1–10 µM
COc1nc(Nc2ccc3cn[nH]c3c2)nc(N2CCN(C)CC2)n1,,inhibition,Nonstructural protein 5B,,Hepatitis C virus,10 µg/mL,30%
O=C(O)C[C@H](Cc1ccccc1)NC(=O)c1cnn2c(C3CCCCC3)c(-c3ccc(F)cc3F)cnc12,,IC50,RNA-dependent RNA polymerase,,Hepatitis C virus,,<1 µM
O=C(NCc1ccc(N2CCNC2=O)cc1)Nc1nc2c(s1)-c1c(cnn1-c1ccccc1C(F)(F)F)C2,PCR,IC50,PI4KIIIalpha,,Hepatitis C virus,,0.027 µM
COc1cccc(COc2cccc(-c3cnc4c(-c5nn[nH]n5)cnn4c3C3CCCCC3)c2)c1,,IC50,RNA-dependent RNA polymerase,,Hepatitis C virus,,1–10 µM
FC(F)(F)c1cc(C(F)(F)F)c2ccc3ncc(-c4nc5ccccc5o4)n3c2n1,luciferase / reporter gene,IC50,Envelope glycoprotein 2,JFH-1,Hepatitis C virus,,>20 µM

A second listing of 5 rows from above:

| compound | read by | measure | target | strain or isolate | organism | dose | result |
|---|---|---|---|---|---|---|---|
| FC(F)(F)c1cc(C(F)(F)F)c2ccc3ncc(-c4nc5ccccc5o4)n3c2n1 | luciferase / reporter gene | IC50 | Envelope glycoprotein 2 | JFH-1 | Hepatitis C virus |  | >20 µM |
| COc1cccc(COc2cccc(-c3cnc4c(-c5nn[nH]n5)cnn4c3C3CCCCC3)c2)c1 |  | IC50 | RNA-dependent RNA polymerase |  | Hepatitis C virus |  | 1–10 µM |
| Cc1cccc(-c2cc3c(C(F)(F)F)cc(C(F)(F)F)nc3n3c(-c4ccc(Cl)cc4)cnc23)c1 | luciferase / reporter gene | IC50 | Envelope glycoprotein 2 | JFH-1 | Hepatitis C virus |  | >20 µM |
| C[C@H](Cc1ccc(O)c(O)c1)[C@@H](C)Cc1ccc(O)c(O)c1 | RNase H / substrate cleavage | inhibition | RNase H | gtH | Hepatitis B virus | 10 µM | >43% |
| CCOC(=O)c1ccc(CC)nc1Nc1ccc(N2CCOCC2)cc1 |  | inhibition | NS5B polymerase |  | Hepatitis C virus | 0.1 µg/mL | 30–55% |

Rows are shuffled and stem from different studies. a–b is a range or a potency band. ICn: concentration for n% inhibition. Percent inhibition refers to the dose given; in toxicity tests it is the harm to the cells.